Amino acid sequences for entries named in this document (tags omitted). Residues count along the entry.
UniProt Q83883, 1101-1281 limits assumed: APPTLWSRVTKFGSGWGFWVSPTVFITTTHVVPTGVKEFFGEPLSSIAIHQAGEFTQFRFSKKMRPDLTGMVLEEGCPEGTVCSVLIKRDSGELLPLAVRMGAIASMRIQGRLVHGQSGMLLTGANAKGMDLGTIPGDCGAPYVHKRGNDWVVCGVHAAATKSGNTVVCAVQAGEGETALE

In patent publication US11344600B2:

Target: NVPro (Norovirus, UniProt Q83883)
Test: Inhibition of Norwalk virus protease (NVPro)
Details: read-out: Ki value

`O=C[C@@H]1CCC(=O)N2CC[C@H](C2)OC/C=C\CC[C@@H](NC(=O)OCc2ccccc2)C(=O)N[C@@H](Cc2ccccc2)C(=O)N1` showed a Ki of 500 nM.
